According to article PMC10125960, “Structural basis for botulinum neurotoxin E recognition of synaptic vesicle protein 2” (Nature Communications, 2023):

B1: VHH-JLE-G6 (residues Q1–S129), stand-alone, tag removed (VHH)
VHH: QLQLVETGGGLVKPGGSLRLSCVVSGFTFDDYRMAWVRQAPGKELEWVSSIDSWSINTYYEDSVKGRFTISTDNAKNTLYLQMSSLKPEDTAVYYCAAEDRLGVPTINAHPSKYDYNYWGQGTQVTVSS
B2: His/SUMO-tagged G6^WT (VHH)
VHH: B1 VHH

Target: receptor-binding domain of BoNT/E (HCE), residues R846–K1252 (UniProt Q00496, biotin (biotinylated HCE in the neuron binding assay only))

Binder | binding result
B1 | binds
B2 | binds
